Data as given in patent publication US20120271036A1 (UNIVERSITY OF ROCHESTER, published 2012).

Key:
[1] = biological target: T1, EloB([…])/EloC([…])/Vif([…]) (human; HIV-1 (group M, subtype B))
[2] = biological target: EloB([…])-linker-Vif([…])/EloC([…]) (human EloB; HIV-1 (group M, subtype B; …); assay: GST pull-down, SDS-PAGE (FIG. 11B)
[3] = biological target: T1, EloB([…])/EloC([…])/Vif([…]); assay: ITC, 30 C; GST-Cul5(N) titrated into the complex; one-site model

B1: GST-Cul5(N)(2-384)(V341R, L345D) (other)
chain: MGSPILGYWKIKGLVQPTRLLLEYLEEKYEEHLYERDEGDKWRNKKFELGLEFPNLPYYIDGDVKLTQSMAIIRYIADKHNMLGGCPKERAEISMLEGAVLDIRYGVSRIAYSKDFETLKVDFLSKLPEMLKMFEDRLCHKTYLNGDHVTHPDFMLYDALDVVLYMDPMCLDAFPKLVCFKKRIEAIPQIDKYLKSSKYIAWPLQGWQATFGGGDHPPKSDLEVLFQGPMHMGGSTSNLLKNKGSLQFEDKWDFMRPIVLKLLRQESVTKQQWFDLFSDVHAVCLWDDKGPAKIHQALKEDILEFIKQAQARVLSHQDDTALLKAYIVEWRKFFTQCDILPKPFCQLEITLMGKQGSNKKSNVEDSIVRKLMLDTWNESIFSNIKNRLQDSAMKLVHAERLGEAFDSQLVIGVRESYVNLCSNPEDKLQIYRDNFEKAYLDSTERFYRTQAPSYLQQNGVQNYMKYADAKLKEEEKRALRYLETRRECNSVEALMECCVNALVTSFKETILAECQGMIKRNETEKLHLMFSLMDKVPNGIEPMLKDLEEHIISAGLADMVAAAETITTDSEKYREQLDTLFNRFSKLVKEAFQDDPRFLTARDKAYKAVVNDATIFK
notes: also called GST-Cullin5 N-terminal protein; GST-Cul5 2-384
Question: How did the N [1] turn out when B1 was run?
Answer: 0.674

Question: What about the ΔH [1] of the same binder?
Answer: -2020

Question: And the ΔS [1]?
Answer: 23.4

Question: Does B1 bind [2]?
Answer: binds

Question: And the Ka [3]?
Answer: 3.75e+06 M⁻¹

Question: And the Kd [3]?
Answer: 266 nM
